Reference: patent US20030036564A1, “Control of lyme disease spirochete” (priority 2001, published 2003)

System: Borrelia burgdorferi strain B31
Test: Antibiotic bait diet fed no-choice for seven days to mice infected with Lyme disease spirochete; ear punch biopsy culture and dark field microscopy
Assay type: in vivo, laboratory mice (Swiss-Webster)
Details: for MEAN BAIT CONSUMPTION (G): seven consecutive days, infected mice
Protocol: The diet compositions described in Examples 1-3 were fed separately on a no-choice basis to separate groups of laboratory mice (Swiss-Webster) infected with the Lyme disease spirochete Borrelia burgdorferi. […]. The mice had all been previously infected with B. burgdorferi strain B31 by subcutaneous injection followed by a minimum 21-day incubation period. To confirm that the mice were positive for the spirochete, a modified ear punch biopsy was performed (Sinsky and Piesman, 1989, J. of Clin. Micro. 27:1723-1727, CDC 1997) on each mouse and the biopsy incubated in a modified BSK-H media for 7 days and viewed under dark field microscopy. The prepared diets were fed to individually housed mice on a no-choice basis and water was offered ad libitum. Consumption was recorded each day and additional feed was added. Diet was presented to the mice for seven consecutive days. On the day following the last day feed was offered, mice were anesthetized with Halothane and ear punch biopsy was performed. The biopsies were incubated in modified BSK-H media for seven days at 34±1° C. Dark field microscopy was then performed on an American Optics 1031 microscope with an American Optics dark field 1096 condenser to determine the presence of spirochetes. Cultures were considered positive if spirochete growth occurred within five weeks of inoculation (Wilske and Preac-Mursic, Aspects of Lyme Borreliosis, Springer-Verlag, New York 1993), viewing the cultures at seven-day increments. A slide was considered negative if no spirochetes were found after searching 100 fields at 400× (Ginsberg and Ewing, J. of Med. Entomology, 26: 183-189, 1989).

**Q.** O=C(N[C@H](CO)[C@H](O)c1ccc([N+](=O)[O-])cc1)C(Cl)Cl [CHLORAMPHENICOL, chloramphenicol] was tested. Which “MEAN BAIT CONSUMPTION (G)” value (Treatment level 1, chloramphenicol 500 μg/g bait) did it give?
**A.** 41.3 ± 4.3 G

**Q.** What about the “MEAN BAIT CONSUMPTION (G)” value (Treatment level 2, chloramphenicol 1000 μg/g bait) of the same compound?
**A.** 42.2 ± 5.5 G

**Q.** Which results are given for CS(=O)(=O)c1ccc([C@@H](O)[C@@H](CO)NC(=O)C(Cl)Cl)cc1 [THIAMPHENICOL, thiamphenicol]?
**A.** MEAN BAIT CONSUMPTION (G) (Treatment level 3, thiamphenicol 1000 μg/g bait): 39.9 ± 20.3 G; MEAN THIAMPHENICOL INTAKE PER DAY (Treatment level 3, thiamphenicol 1000 μg/g bait, seven days): 2.9 ± 1.4 mg
